Results of unrelated studies side by side (data: NIAID ChemDB).

All rows: growth or infection tests; agent: Plasmodium falciparum; read-out: EC50

Neighbouring rows are from separate reports. ECn is the concentration giving n% inhibition of infection, replication or growth. Blank or dashed fields: not listed here.

compound | cells | strain or isolate | result
C[C@@H]1CC[C@H]2[C@@H](C)C(=O)O[C@@H]3OC4(C)CC[C@@H]1[C@]32OO4 | - | 3D7 | 0.0011 µM
C/C=C(\C)C(=O)O[C@@H]1C/C(CO)=C/C[C@@H](O)/C=C(/C)[C@H]2OC(=O)[C@H](C)[C@@H]21 | - | - | >5 µg/mL
C=C1CN2CCC34c5ccccc5N5C=C([C@H]6CC7C8=C(CCC7C/C6=C/C)c6ccccc6C8)[C@@H](O)[C@@H]([C@H]53)[C@H]1C[C@H]24 | - | 3D7 | 0.861 µg/mL
C/C=C(\C)C(=O)O[C@@H]1CC(C(=O)O)=C2C(=O)C=C(C)[C@@H]2[C@H]2OC(=O)[C@H](C)[C@@H]21 | - | - | >5 µg/mL
Cc1c2ccncc2c(C)c2c1[nH]c1ccccc12 | - | 3D7 | 0.35 µM
COc1ccc(CNc2ccc3[nH]c(=O)[nH]c3c2)cc1 | - | Dd2 | >50 µM
CN1CCc2cc3c(cc2[C@@H]1[C@@H]1OC(=O)c2c1ccc1c2OCO1)OCO3 | - | TM4/8.2 | >20 µg/mL
CCNc1cc2sc3cc(=[NH+]CC)c(C)cc-3nc2cc1C | - | - | 0.00362 µM
COc1cc(/C=C2\CC/C(=C\c3ccc(OCCCn4ccnc4C)c(OC)c3)C2=O)ccc1OCCCn1ccnc1C | - | W2 | 4.48 µM
C=CC1CN2CCC1CC2[C@H](O)c1ccnc2ccc(OC)cc12 | - | 3D7 | 0.11 µM
CCN(CC)CCCC(C)Nc1ccnc2cc(Cl)ccc12 | - | W2 | 0.43 µM
Clc1cccc(NCn2nnc3ccccc32)c1 | - | Dd2 | >50 µM
C/C=C1/CN2CCc3c([nH]c4ccccc34)C2C[C@@H]1C1=CN2c3ccccc3C34CCN5CC6=CCO[C@@H]1[C@@H]([C@H]23)[C@H]6C[C@H]54 | - | 3D7 | 0.388 µg/mL
OCCCNc1nc(NCCNc2ccnc3cc(Cl)ccc23)nc(N2CCCCC2)n1 | - | D6 | 0.21 µM
CCN(CC)CCCC(C)Nc1ccnc2cc(Cl)ccc12 | - | HB3 | 0.032 µg/mL
OCCCCNc1nc(NCCCCNc2ccnc3cc(Cl)ccc23)nc(N2CCOCC2)n1 | - | W2 | 0.49 µM
CCOC(=O)c1ccc(/C=C/C2CN3CCC2CC3[C@H](O)c2ccnc3ccccc23)cc1 | - | Dd2 | 0.176 µM
CCO[C@H]1O[C@@H]2OC3(C)CC[C@H]4[C@H](C)CC[C@@H]([C@H]1C)[C@@]24OO3 | - | 3D7 | 0.01 µg/mL
C[C@@H]1CC[C@H]2[C@@H](C)C(=O)O[C@@H]3OC4(C)CC[C@@H]1[C@]32OO4 | - | D10 | 0.036 µM
OCCCCNc1nc(NCCNc2ccnc3cc(Cl)ccc23)nc(N2CCOCC2)n1 | - | W2 | 1.52 µM
Cc1ccc2oc(-c3ccc(O)cc3O)nc2c1 | - | Dd2 | >50 µM
OCCCCNc1nc(NCCNc2ccnc3cc(Cl)ccc23)nc(N2CCCCC2)n1 | - | D6 | 0.14 µM
CC(C)CN1CCN(C(=O)CC2CCC3(CC2)OOC2(OO3)C3CC4CC(C3)CC2C4)CC1 | - | K1 | 0.0009 µM
O=c1c(O[C@@H]2O[C@H](CO)[C@H](O)[C@H](O)[C@H]2O)c(-c2ccc(O)c(O)c2)oc2cc(O)cc(O)c12 | - | Clinical isolates | 24.38 µM
CCN(CC)CCCC(C)Nc1ccnc2cc(Cl)ccc12 | - | RSA11 | 0.278 µM
Cc1cccc(OCCNC(=O)c2ccccc2)c1 | - | Dd2 | 24.3 µM
OCCNc1nc(NCCCCNc2ccnc3cc(Cl)ccc23)nc(N2CCCCC2)n1 | - | W2 | 0.42 µM
COc1cc2c(cc1OC)CN(Cc1ccc(O)cc1)CC2 | - | K1CB1 | >20 µg/mL
C/C=C1/CC2CCC3=C(Cc4ccccc43)C2C[C@@H]1C1=CN2c3ccccc3C34CCN5C/C(=C/O)[C@H](C[C@H]53)[C@@H]([C@@H]1O)[C@H]24 | - | W2 | 0.615 µg/mL
Cc1ccc(N=C2SCC(O)=C2C(=O)O)cc1C | - | Dd2 | >20 µM
OCCCNc1nc(NCCNc2ccnc3cc(Cl)ccc23)nc(N2CCOCC2)n1 | - | W2 | 1.56 µM
COc1ccc2nc3cc(Cl)ccc3c(Nc3cc(CN4CCCC4)c(O)c(CN4CCCC4)c3)c2n1 | - | NF54 | 0.0049 µM
O=C(CC1CCC2(CC1)OOC1(OO2)C2CC3CC(C2)CC1C3)NCCN1CCCC1 | - | K1 | 0.0009 µM
CCOC(=O)C1=C(O)CSC1=Nc1ccc(Br)cc1C | - | 3D7 | >20 µM
Cc1cccc(OCCNC(=O)c2ccc(N(C)C)cc2Cl)c1 | - | Dd2 | >50 µM
COc1cc(/C=C2\CC/C(=C\c3ccc(OCCCn4ccnc4)c(OC)c3)C2=O)ccc1OCCCn1ccnc1 | - | D6 | 0.53 µM
Cc1cccc(OCCNC(=O)c2ccc(C)cc2Cl)c1 | - | Dd2 | >50 µM
COc1cc(/C=C2\CC/C(=C\c3ccc(OCCn4ccnc4C)c(OC)c3)C2=O)ccc1OCCn1ccnc1C | - | W2 | 3.01 µM
Cc1cccc(NCC(=O)NNCc2ccccc2)c1 | - | Dd2 | >50 µM
CC(C)(O)[C@H](O)COc1c2occc2cc2ccc(=O)oc12 | RBC | CQ-resistant | 6 µg/mL
Cc1ccc(NC2=C(ON)C(=O)CS2)cc1C | - | 3D7 | >20 µM
O=C(CC1CCC2(CC1)OOC1(OO2)C2CC3CC(C2)CC1C3)N1CCOCC1 | - | K1 | 0.0008 µM
C[C@H]1[C@@H](OC(=O)CCC(=O)O)O[C@@H]2O[C@@]3(C)CC[C@H]4[C@H](C)CC[C@@H]1[C@@]24OO3 | - | NF54 | 0.004 µM
COc1ccc(NC(=O)C2C(C(=O)O)[C@@H]3CC[C@H]2O3)cc1 | - | W2 | >500 µM
OCCCCNc1nc(NCCCCNc2ccnc3cc(Cl)ccc23)nc(N2CCCCC2)n1 | - | D6 | 0.1 µM
CN1CCc2cc3c(cc2[C@H]1[C@H]1OC(=O)c2c1ccc1c2OCO1)OCO3 | - | TM4/8.2 | >10 µg/mL

Again, the opening 3 rows:

compound,cells,strain or isolate,result
C[C@@H]1CC[C@H]2[C@@H](C)C(=O)O[C@@H]3OC4(C)CC[C@@H]1[C@]32OO4,-,3D7,0.0011 µM
C/C=C(\C)C(=O)O[C@@H]1C/C(CO)=C/C[C@@H](O)/C=C(/C)[C@H]2OC(=O)[C@H](C)[C@@H]21,-,-,>5 µg/mL
C=C1CN2CCC34c5ccccc5N5C=C([C@H]6CC7C8=C(CCC7C/C6=C/C)c6ccccc6C8)[C@@H](O)[C@@H]([C@H]53)[C@H]1C[C@H]24,-,3D7,0.861 µg/mL